Experimental data published in PMC6178619, “Arylvinylpiperazine Amides, a New Class of Potent Inhibitors Targeting QcrB of Mycobacterium tuberculosis” (mBio, 2018).

Tested on: M. tuberculosis H37Rv
Test: Transcriptional response by RNA-seq
Format: cell-based, Mycobacterium tuberculosis
Conditions: AX-35 at 10× and 30× MIC, 4 h

Q: `O=C(/C=C/c1cccs1)N1CCN(Cc2ccc3c(c2)OCO3)CC1` [AX-35, (E)-1-(4-(Benzo[d][1,3]dioxol-5-ylmethyl)piperazin-1-yl)-3-(thiophen-2-yl)prop-2-en-1-one] was tested. Which “cydA fold change (RNA-seq)” value did it give?
A: Its value is 1.97.

Q: And the “cydB fold change (RNA-seq)” value?
A: Its value is 1.99.
